From US20220218837A1, “DRUG CONJUGATE” (priority 2018, published 2022)

What was measured:
[1] = tested on: SK-BR-3 cells (HER2++/EGFR+/-/CD71+); assay: Cell killing / cell viability, SK-BR-3 cells; type: cell-based, human
[2] = tested on: human A431 tumor cells (xenograft; high EGFR, medium CD71, low HER2); assay: A431 xenograft mouse tumor model, tumor volume; type: in vivo; settings: Balb/c nude mice, sub-optimal ADC dose, tumor ~170-180 mm^3 at start
Description: Female Balb/c nude mice were injected subcutaneously with a suspension of human A431 tumor cells. Under the skin of the mice, a human epidermal carcinoma developed in the xenograft animal tumor model. After injection of the tumor cells, the xenograft tumor was allowed to develop to a size of approximately 170-180 mm^3. The A431 tumor cells have the following characteristics: high EGFR expressors, medium CD71 expressors, low HER2 expressors.
In Table A, the results of the treatment of control mice and tumor-bearing mice are presented. Tumor-bearing mice were treated with the indicated antibodies directed to either human Her2/neu, human EGFR, or human CD71, which are cell-surface receptors on the xenograft tumor. Cetuximab was covalently conjugated with saponin SO1861. […] The ADCs trastuzumab-saporin (covalent conjugate) and anti-CD71 mAb (OKT-9, IgG)—saporin (covalent conjugate) were tested for their tumor-attacking efficacy in the mice, measured as tumor volume in time after start of the treatment with the ADCs. The dose of the ADCs was sub-optimal in the tumor model. […]
The conjugate was tested in a A431 (EGFR^++) xenograph mouse tumor model for EGFR tumor targeted cell killing as illustrated in FIG. 9-4. Dosings started at day 12 when tumors reached ˜150 mm^3 in size and tumor volume was determined after every dosing.

[3] = tested on: MDA-MB-468 cells (EGFR++/HER2-/CD71+); assay: Cell killing / cell viability, MDA-MB-468 cells; type: cell-based, human; settings: titrated + fixed 10 pM CD71mab-saporin

Substance: trastuzumab-Lys-(dendron(-L-SO1861)^4)^4,7: dendron(-L-SO1861)^4 conjugated to lysines of trastuzumab
- IC50 cell killing ([1]; titrated + fixed 10 pM CD71mab-saporin): strong cell killing activity

Substance: Cetuximab-SO1861 (covalent conjugate): SO1861-EMCH covalently coupled to reduced cysteines of cetuximab
- tumor size (volume) [2]: 2000 mm^3

Substance: trastuzumab-(L-SO1861)^3,8: trastuzumab with labile SO1861, control conjugate
- IC50 cell killing ([1]; substance alone, no partner): not observed

Substance: Cetuximab-Lys-(dendron(-L-SO1861)^4)^4,4: dendron(-L-SO1861)^4 conjugated to lysines of cetuximab
- IC50 cell killing [3]: strong enhancement of the cell killing activity
